According to patent US11519017B2, “Kit for diagnosing infection with Methicillin-resistant Staphylococcus aureus (MRSA) by detecting magnesium ions” (Bioacts Corporation, priority 2017, dated 2022):

Assays:
Type in all cases: physicochemical
[1] = Evaluation of magnesium ion sensitivity at concentration of less than 10 mM; conditions: for discoloration at magnesium ion concentration of less than 10 mM: MgCl2 up to 8 mM
Protocol: Magnesium chloride was dissolved in deionized water and diluted to 8, 10, 12, 14 and 16 mM, respectively, to prepare specimens. Next, as the dye compounds, the HNB and the compound of Chemical Formula 2 were prepared at a concentration of 240 μM, but the compounds of Chemical Formulas 3 and 4 were prepared to be diluted at a concentration of 120 μM by 50% because the molar absorption coefficient of the compounds was two times higher than that of the control (HNB).
In each row of a 96-well plate, […] of the dye compound was filled, and in each column, […] of a diluted magnesium chloride solution was filled, and then the color changes were observed and absorbance was measured. The final concentrations of magnesium chloride in the 96-well plate were 0, 4, 5, 6, 7, and 8 mM, and the final concentrations of HNB and Chemical Formula 2 were 120 μM, respectively, and the final concentrations of Chemical Formulas 3 and 4 were 60 μM, respectively.

[2] = Evaluation of magnesium ion sensitivity at concentration of 10 mM or more; conditions: dye 120 μM; for magnesium concentration at which color development starts: magnesium 10 mM to 100 mM
[3] = Evaluation of magnesium ion detection characteristics and pH stability (color development, 96 well plate); conditions: for color developed in the presence of magnesium: MgCl2 solution; for color development (discoloration) in the presence of magnesium ions: MgCl2 solution versus blank, final specimen concentration 120 μM; for color developed in the absence of magnesium ions: blank and pH 4 to 11 buffers
Protocol: 200 mM of a magnesium chloride solution was prepared by dissolving 0.9521 g of magnesium chloride in 50 ml of deionized water.
59.99 mg of sodium phosphate monobasic and 70.98 mg of sodium phosphate dibasic were dissolved in 50 ml of distilled water to prepare 10 mM of a sodium phosphate buffer solution, and then 28.85 ml of a sodium phosphate monobasic solution and 21.15 ml of a sodium phosphate dibasic solution were mixed to prepare a sodium phosphate buffer solution at pH 7. In a similar manner, the two solutions were mixed to prepare sodium phosphate buffer solutions having acidity of pH 4, pH 7, pH 9, and pH 11, respectively.
For determination of color development, the HNB and the candidate substance were prepared at concentrations of 240 μM and used for the test.
Hydroxynaphthalene blue (HNB) and 9 types of water-soluble candidate substances selected by the solubility test were diluted with distilled water to prepare specimens at concentrations of 240 μM, respectively.
It was confirmed whether the candidate substances according to the present invention reacted with magnesium ions to be color-developed (discolored). In addition, pH stability was confirmed according to whether the candidate substances were specifically color-developed by reacting only with magnesium ions regardless of a pH change.
The color development of the control (HNB) and […] of candidate substances was confirmed under conditions of blank, a MgCl2 solution, pH 4, pH 7, pH 9, and pH 11 using a 96 well plate (12×6 holes). Specifically, 100 μl of deionized water (blank) was added in a first row of the plate, 100 μl of the MgCl2 solution was added in a second row thereof, and 100 μl of each of solutions at pH 4, pH 7, pH 9, and pH 11 was added in third to sixth rows thereof using 10 mM of the sodium phosphate buffer solution prepared in step a) above. In columns of the plate, 100 μl of specimens prepared at a concentration of 240 μM were added to 6 rows, respectively, and a total of 36 specimens were screened. The final concentration of the MgCl2 solution contained in each well was 100 mM and the final concentration of the specimen was 120 μM.

| Compound | discoloration at magnesium ion concentration of less than 10 mM [1] | magnesium concentration at which remarkably developed to cherry red instead of violet [2] | magnesium chloride concentration at which a complementary color was exhibited ([1]; dye final 60 μM, MgCl2 0, 4, 5, 6, 7, 8 mM) | color developed in the presence of magnesium [3] | color development (discoloration) in the presence of magnesium ions [3] | color developed in the absence of magnesium ions [3] | magnesium concentration at which developed to blue violet [2] | magnesium concentration at which color development starts [2] | magnesium concentration at which developed to dark blue [2] |
| --- | --- | --- | --- | --- | --- | --- | --- | --- | --- |
| O=[N+]([O-])c1ccc(O)c(N=Nc2cc(S(=O)(=O)O)c3ccccc3c2O)c1 [Chemical Formula 2] | not discolored | ≥ 100 mM |  |  |  |  |  |  |  |
| Nc1ccc2c(O)c(N=Nc3ccc([N+](=O)[O-])cc3O)c(S(=O)(=O)O)cc2c1 [Chemical Formula 3] |  |  | 4 mM | dark blue | developed to a complementary color | orange or violet |  |  |  |
| O=[N+]([O-])c1cc(N=Nc2c(S(=O)(=O)O)cc3cc(Nc4ccccc4)ccc3c2O)c(O)c([N+](=O)[O-])c1 [Chemical Formula 4] | not discolored |  |  | dark violet | developed to a complementary color | red | about 20 mM | 10 mM |  |
| hydroxynaphthalene blue [HNB, reference compound] | not discolored |  |  |  |  |  |  | ≥ 10 mM | ≥ 40 mM |
